This note sets out measurements from article PMC4847859.

Series [1] addresses CdpR (Pseudomonas aeruginosa PAO1) (UniProt Q9I0P9). Briefly: EMSA. The following applies: recombinant protein, probe letters rebuilt from the primers and the genome; for binding result: 0.125-1 uM.
The target is the same in series [2]. Briefly: DNase I footprinting. As to conditions: CdpR 4.0 uM or 2 uM (Methods); recombinant protein; label: 5' 6-FAM on pqsH-gf strand; probe letters rebuilt from the primers and the genome.

Construct, isoform or probe ends are uncertain for at least one entry.

As to “GTGGATACCTGGGCGAGTTCGTAGCGCGCATCGGCGGCATTGTTGTGCATGGGCGAAATCCTGAGCCGGTCTCGGCTTCGTTCTTGTTCTGGCGGTGGATCGCGACATGGGATGAGCGTCCCATCATATAGCGTTCCGCACAGATGTAACAAAGCATTGCGCAGTGTCCGCAAATCCCCCCCTCGCTGACCGTCAATGCCCTGCCTCGGCCTGCCGTTAGGGCTTATTCCTATGCCGTGCCCCGAGCCACGCCAACAATAATAAGAGCCCGCCCATGAACCCGATCCGCCCCCACAGGCCCCTGCGCCTGGCCGCCTGCGTCACCCTCGCCGTCAGCTGCTGCACCCACGCCAGCGAAGGCGGCGTGGACAACATTGGTCCAGGAACCGACGGTTTCTTCACCCTGCCACTGGACGTCGACAACCTCCCCGACCACATGTTCGCCTTCAACGTCTACTACAACCACTACGAAGCCAGGAAGCTGAACATCAGCTCCTTCGGCGGCAAGGTGTCCGACGTGAAGATCAGCTCGGAT (double strand) [sphR promoter]”, the binding result in series [1] is “binds”.

Take “TAAGGGGTTGACAGGAGCGGGGTCTGCGTATAGCCGCGCCTCCGCGACGCCGTGCCGATCGGTCGTGCATGCTTGCCGTGGCCCGGCTGAGCACTGCCGTCCCGGCCACTCTCGCCGGGGTGGCTGCGCCTGGATGATCGTCGTGGGCGGTGGTGGCGCGGGCCGGTCGCCCTGAGCTTCAGGCGCCATCGCCGCTTGCCGGCGCTCGGGAGGCCGCTGGCCAAGGAAAACCGTAGCGCCGCGGCGGGCGGCGGCTAGCGGGGATTTCCGGCCACGCGTGCCGTGCCCGGGCCACGCTTGCCTTCCCGGCGCGCCGGACTCCCGGTGGCCTGGAGGACAGGAAAAGCGAGCGGCGAGGTGTCGGCGAGCAGGGTCAACTCGATCTTCTGATAGGGTCGGTGGGCTGTCCGGGGCGGCTAGGATGGACATTTTCATCGTCTCGGGCAGGCCTGTCGCGACCGCGCGAAGTCGCGACGGATGCCGCTGCTAAGGAGCAACGGATGACCGTTCTTATCCAGGGGGCCGGGATCGCCGGCCTGGCGCTGGCGCGCGAATTCACCAAGGCAGGCATCGACTGGCTGCTGGTC (double strand) [pqsH-p (pqsH-cdpR intergenic region)]”: the half-maximal binding in series [1] (about 50% of probe shifted, DNA 40 nM) is 500 nM.

As to “TAAGGGGTTGACAGGAGCGGGGTCTGCGTATAGCCGCGCCTCCGCGACGCCGTGCCGATCGGTCGTGCATGCTTGCCGTGGCCCGGCTGAGCACTGCCGTCCCGGCCACTCTCGCCGGGGTGGCTGCGCCTGGATGATCGTCGTGGGCGGTGGTGGCGCGGGCCGGTCGCCCTGAGCTTCAGGCGCCATCGCCGCTTGCCGGCGCTCGGGAGGCCGCTGGCCAAGGAAAACCGTAGCGCCGCGGCGGGCGGCGGCTAGCGGGGATTTCCGGCCACGCGTGCCGTGCCCGGGCCACGCTTGCCTTCCCGGCGCGCCGGACTCCCGGTGGCCTGGAGGACAGGAAAAGCGAGCGGCGAGGTGTCGGCGAGCAGGGTCAACTCGATCTTCTGATAGGGTCGGTGGGCTGTCCGGGGCGGCTAGGATGGACATTTTCATCGTCTCGGGCAGGCCTGTCGCGACCGCGCGAAGTCGCGACGGATGCCGCTGCTAAGGAGCAACGGATGACCGTTCTTATCCAGGGGGCCGGGATCGCCGGCCTGGCGCTGGCGCGCGAATTCACCAAGGCAGGCATCGACTGGCTGCTGGTC (double strand) [pqsH promoter footprint probe]”, in series [2], the binding result is “binds”.

With “CCTGGCAGGCATGGAGAGCGCCAGCAGGACGCAGGACAGCAAGAGCGCGGTGAATGCGGAACGTGACATGGCGACCCTCTTCTTGTTTTCCGCCGCTGGGCGGGCTGGGGACGGTGGTCATCGAAAGCGGGCCGGAGCCTGCTTCGCCTGGTTGCCACTGTAGTGCCAGGGTGGTGGAGTCGAGGGGGGCGTAGCGGACAGGAAGGGGGTGAGCGCCGGCCATCCTGCATGGACGGCAAGGCAGGCGGGTAAAAAAAGGCCGCCTGCGTGGGGAGGCACCGGCGGCCAGTCGGTTCGGCAGCGTCGAGCCGGTCTGCAAGGGCTGGCGCAGGTCTCGGCTGCGGCCTGCGCCGACGCTCCCGAGGGCATTCGTAGTGTGCCCGACGCCGGCTGTCAGGGCGCTGACGCCCGCCTGACAATGCCGACAGCGGACACCGGGCGCATGCTTATTTCACCAGCGCCCTCTCGCCTTCCTCGCGGACCCAGAACAGGGTGGCGCCGGCGACGGCGGCGGGCATCATGACCAGGTTGACCAGCGGGATCAGCAGCGCCAGGTAG (double strand) [cerN promoter]”, in series [1], the binding result is “binds”.
